Measured values from several laboratories, pooled; numbers as filed in NIAID ChemDB.

Shared fields: tests on isolated targets; organism: HIV-1; protein: Reverse transcriptase; read-out: IC50

Lines come from different laboratories, so protocols vary. Blank or dashed fields: not listed here. ICn: concentration for n% inhibition.

structure,strain or isolate,changes,read by,result
CC(=O)OCc1cn(Cc2ccncc2)c(Sc2ccccc2)c1C(C)C,-,-,nucleotide incorporation / radiometric,0.3 µM
O=C1OC2[C@@H](CO)O[C@@H](OC(=O)c3cc(O)c(O)c(O)c3)[C@H](OC(=O)c3cc(O)c(O)c4c3[C@@H]3C1=CC(=O)C(O)(O)C3(O)O4)[C@H]2O,-,-,nucleotide incorporation,>20 µg/mL
O=C1N=S(=O)(c2ccccc2)c2ccccc2N1,-,-,-,11.3 µM
CC(C)C[C@@H](c1c(O)c(C=O)c(O)c(C=O)c1O)[C@@]1(C)CC[C@@H]2[C@@H]1[C@H]1[C@@H](CC[C@@]2(C)O)C1(C)C,-,-,RT activity,10 µM
CC1(C)CC[C@]2(C(=O)O)CC[C@]3(C)C(=CC[C@@H]4[C@@]5(C)C[C@@H](O)[C@@H]6OC(=O)c7cc(O)c(O)c(O)c7-c7c(cc(O)c(O)c7O)C(=O)OC[C@@]6(CO)[C@@H]5CC[C@]43C)[C@@H]2C1,-,-,nucleotide incorporation,>20 µg/mL
Cc1ccc2nc(-c3c(F)cccc3F)n(Cc3c(F)cccc3F)c2c1,-,-,-,>10 µM
C[C@H](CCC(=O)O)[C@H]1CC[C@H]2[C@@H]3CC[C@@H]4C[C@H](O)CC[C@]4(C)[C@H]3CC[C@]12C,-,-,-,>1000 µM
C#Cc1ccc(Nc2nccc(Oc3c(C)cc(-c4cn(Cc5ccc(C#N)cc5)nn4)cc3C)n2)cc1,-,-,RT activity / ELISA,0.4 µM
O=C1c2c(O)cc(O)cc2O[C@@H](c2ccc(O)cc2)[C@@H]1c1c(O)cc(O)c2c(=O)cc(-c3ccc(O)c(O)c3)oc12,-,-,RT activity / radiometric,86.94 µM
O=C(OC1[C@H](OC(=O)c2cc(O)c(O)c(O)c2)CC(O)(C(=O)O)C[C@H]1OC(=O)c1cc(O)c(O)c(O)c1)c1cc(O)c(O)c(O)c1,IIIB,-,-,2 µg/mL
Cc1cn([C@@H]2O[C@H](CO[Si](C)(C)C(C)(C)C)C3(OS(=O)(=O)C=C3N)[C@H]2O[Si](C)(C)C(C)(C)C)c(=O)n(C)c1=O,WT,-,nucleotide incorporation / radiometric,1.6 µM
CC(C)=CCC[C@@H](C)C1CC[C@]2(C)CC=C(C=O)C1(C=O)[C@@H]2O,-,-,nucleotide incorporation / radiometric,>100 µM
O=S1(c2ccccc2)=NC(=S)Nc2ccccc21,-,-,-,1.2 µM
Cc1cn([C@H]2C=C[C@@H](COP(=O)(O)OP(=O)(O)OP(=O)(O)O)O2)c(=O)[nH]c1=O,-,-,RT activity,0.007 µM
Cc1cn([C@H]2C=C[C@@H](COP(=O)(O)OP(=O)(O)OP(=O)(O)O)O2)c(=O)[nH]c1=O,WT,-,nucleotide incorporation / radiometric,0.19 µM
OCc1cn(Cc2ccncc2)c(Sc2cc(Cl)cc(Cl)c2)c1C1CCC1,-,RT-Y181I,nucleotide incorporation / radiometric,10.4 µM
O=C(Oc1c(-c2ccc(Cl)cc2)oc2ccccc2c1=O)c1cc(O)c(O)c(O)c1,-,-,-,100 µM
Cc1cccc2c1nc(CO)n2Cc1c(F)cccc1F,-,-,-,>10 µM
CC(C)=CCOc1cc(NC(=S)c2ccoc2C)ccc1Cl,-,-,-,0.02 µg/mL
COc1cc(C(=O)Oc2c(-c3ccc(Cl)cc3)oc3ccccc3c2=O)ccc1OC(C)=O,-,-,-,>100 µM
NC(=O)OCc1cn(Cc2ccncc2)c(Sc2cc(Cl)cc(Cl)c2)c1C1CCC1,-,RT-K103N,nucleotide incorporation / radiometric,75.5 µM
O=c1c2cc(O)c(O)cc2oc2cc(O)cc(O)c12,-,-,RT activity / radiometric,28.25 µM
Fc1cccc(F)c1[C@@H]1SCc2nc3ccccc3n21,-,-,nucleotide incorporation,489.1 µM
Cc1cccc2c1nc(-c1c(F)cccc1F)n2S(=O)(=O)c1ccccc1,-,-,-,<10 µM
Cc1nc([N+](=O)[O-])cn1CC(=O)CNc1ccccc1,-,-,RT activity / nucleotide incorporation,>100 µM
C[C@H](CCC(=O)O)[C@H]1CC[C@H]2[C@@H]3CC[C@@H]4C[C@H](OS(=O)(=O)O)CC[C@]4(C)[C@H]3CC[C@]12C,-,-,-,90 µM
Cc1cccc2c1nc(-c1c(F)cccc1F)n2Cc1c(Cl)cccc1Cl,-,-,-,~10 µM
Cc1cncn1CCC(=O)Nc1cccc(O)c1,-,-,RT activity / nucleotide incorporation,>100 µM
C#Cc1ccc(Nc2nccc(Oc3c(C)cc(-c4cn(Cc5ccccc5)nn4)cc3C)n2)cc1,-,-,RT activity / ELISA,0.18 µM
O=C(OCC1O[C@@H](O)C(O)(COC(=O)c2cc(O)c(O)c(O)c2)C1OC(=O)c1cc(O)c(O)c(O)c1)c1cc(O)c(O)c(O)c1,-,-,nucleotide incorporation,>20 µg/mL
Cc1cccc2c1nc(C(C)C)n2Cc1c(F)cccc1F,-,-,-,>10 µM
Nc1nc2c(ncn2[C@H]2CC[C@@H](COP(=O)(O)OP(=O)(O)OP(=O)(O)O)O2)c(=O)[nH]1,-,-,nucleotide incorporation,0.05 µM
COc1cc(C(=O)Oc2c(-c3ccc(Cl)c(Cl)c3)oc3ccccc3c2=O)ccc1O,-,-,-,>100 µM
CC(C)CC(c1c(O)c(C=O)c(O)c(C=O)c1O)C1(C)CCC2C1=CC(C(C)(C)O)CCC2C,-,-,RT activity,12 µM
CC(Cn1c(=S)[nH]c2ccccc21)N(C)Cc1ccccc1,-,-,RT activity,>100 µg/mL
COC(=O)C1C(=O)N(O)C(=O)c2ccccc21,-,-,RT activity / nucleotide incorporation,>50 µM
CC(C)(C)[Si](C)(C)OC[C@H]1O[C@@H](n2cnc3c(N)ncnc32)[C@H](O[Si](C)(C)C(C)(C)C)C12OS(=O)(=O)C=C2N,-,-,ELISA,<16 µM
Fc1cccc(F)c1C1SCc2nc3ccccc3n21,-,-,nucleotide incorporation,14.6 µM
CC(C)=CCOc1cc(NC(=S)c2ccsc2C)ccc1Cl,-,-,-,0.02 µg/mL
C#Cc1ccc(Nc2nccc(Oc3c(C)cc(-c4cn(CC(=O)Nc5ccc(S(C)(=O)=O)cc5)nn4)cc3C)n2)cc1,-,-,RT activity / ELISA,0.29 µM
C[C@H](CCC(=O)NCCS(=O)(=O)O)[C@H]1CC[C@H]2[C@@H]3CC[C@@H]4C[C@H](O)CC[C@]4(C)C3CC[C@]12C,-,-,-,>1000 µM
Cc1cccc2c1nc(-c1ccc(C#N)cc1)n2Cc1c(F)cccc1F,-,-,-,>10 µM
c1ccc(C2SCc3nc4ccccc4n32)cc1,-,RT-H221Y,-,>50 µM
C[C@H]1[C@H](O)c2c(c3c(c4c(-c5ccccc5)cc(=O)oc24)OC(C)(C)C=C3)O[C@@H]1C,IIIB,-,scintillation proximity / radiometric,0.038 µM
Cc1cncn1CC(=O)Nc1cccc(O)c1,-,-,RT activity / nucleotide incorporation,>100 µM
COc1cc(C(=O)Oc2c(-c3ccc(Cl)cc3)oc3ccccc3c2=O)cc(OC)c1OC(C)=O,-,-,-,>100 µM
CC(=O)O[C@H]1C2(C=O)C(C=O)=CC[C@@]1(C)CCC2[C@H](C)CCC=C(C)C,-,-,nucleotide incorporation / radiometric,40 µM
O=C(OC1[C@H](O)CC(OC(=O)c2cc(O)c(O)c(O)c2)(C(=O)O)C[C@H]1O)c1cc(O)c(O)c(O)c1,-,-,nucleotide incorporation,>20 µg/mL
OCc1cn(Cc2ccncc2)c(Sc2cc(Cl)cc(Cl)c2)c1C1CC1,-,-,nucleotide incorporation / radiometric,0.43 µM
C#Cc1ccc(Nc2nccc(Oc3c(C)cc(-c4cn(-c5ccc(C(=O)OC)cc5)nn4)cc3C)n2)cc1,-,-,RT activity / ELISA,0.06 µM
Cc1nc([N+](=O)[O-])cn1CC(=O)CNc1ccc(Cl)cc1,-,-,RT activity / nucleotide incorporation,>100 µM
O=c1c(O)c(-c2ccc(Cl)c(Cl)c2)oc2ccccc12,-,-,-,>100 µM
C#Cc1ccc(Nc2nccc(Oc3c(C)cc(-c4cn(CC(=O)Nc5ccc(F)cc5)nn4)cc3C)n2)cc1,-,-,RT activity / ELISA,0.36 µM
COc1ccc2c(c1)N(C(=O)OC(C)C)[C@@H](CSC)C(=S)N2,-,-,RT activity,0.006 µg/mL
C#Cc1ccc(Nc2nccc(Oc3c(C)cc(-c4cn(CCCC(=O)OC)nn4)cc3C)n2)cc1,-,-,RT activity / ELISA,0.21 µM
O=C(O[C@@H]1O[C@@H]2COC(=O)c3cc(O)c(O)c(O)c3-c3c(cc(O)c(O)c3O)C(=O)O[C@H]([C@H]1OC(=O)c1cc(O)c(O)c(O)c1)[C@@H]2OC(=O)c1cc(O)c(O)c(O)c1)c1cc(O)c(O)c(O)c1,-,-,nucleotide incorporation,>20 µg/mL
O=S1(c2ccc(Cl)cc2)=NC(=S)Nc2ccc(Cl)cc21,-,-,-,4.4 µM
CC(C)=CCN1Cc2cccc3[nH]c(=S)n(c23)C[C@@H]1C,-,-,nucleotide incorporation / radiometric,0.5 µM
CC(C)=CC[C@H]1C[C@]2(C[C@H]3CCC(C)(C)C=C3C)C(=O)C3=C(OC(C)(C)CC3)[C@@](C(=O)c3ccccc3)(C2=O)C1(C)C,-,-,RT activity / radiometric,126 µM
Cc1cn([C@H]2C=C[C@@H](COP(=O)(O)NC(C)C(=O)O)O2)c(=O)[nH]c1=O,-,-,RT activity,>100 µM
CC(C)=CCOc1cc(NC(=S)c2ccoc2C)ccc1Cl,WT,-,nucleotide incorporation / radiometric,0.11 µM
C#Cc1ccc(Nc2nccc(Oc3c(C)cc(-c4cn(-c5ccc(C(=O)O)cc5)nn4)cc3C)n2)cc1,-,-,RT activity / ELISA,0.02 µM

3 of the rows above, restated:

structure	strain or isolate	changes	read by	result
C[C@H](CCC(=O)O)[C@H]1CC[C@H]2[C@@H]3CC[C@@H]4C[C@H](O)CC[C@]4(C)[C@H]3CC[C@]12C	-	-	-	>1000 µM
CC(C)(C)[Si](C)(C)OC[C@H]1O[C@@H](n2cnc3c(N)ncnc32)[C@H](O[Si](C)(C)C(C)(C)C)C12OS(=O)(=O)C=C2N	-	-	ELISA	<16 µM
O=C1OC2[C@@H](CO)O[C@@H](OC(=O)c3cc(O)c(O)c(O)c3)[C@H](OC(=O)c3cc(O)c(O)c4c3[C@@H]3C1=CC(=O)C(O)(O)C3(O)O4)[C@H]2O	-	-	nucleotide incorporation	>20 µg/mL